Results of unrelated studies side by side (data: NIAID ChemDB).

All rows: tests in culture; agent: HIV-1; read-out: EC50

An empty or dashed field is not shown. Neighbouring rows are from separate reports. a–b is a range or a potency band. ECn: concentration that inhibits the pathogen or its effect by n%.

CC(C)(C)NC(=O)[C@@H]1CCCN1C(=O)[C@@H](O)[C@H](Cc1ccccc1)NC(=O)[C@H](CC(N)=O)NC(=O)COc1ccccc1 ; value: 4.5–6 µg/mL
CS(C)=O ; strain or isolate: LAI ; value: >16.7 µM
CN1C(=O)[C@@H](c2cc(Cl)c(O)c(Cl)c2)NC(=O)C2NC(=O)[C@H](c3cc(Cl)c(O)c(Cl)c3)NC(=O)[C@@H](NC(=O)C(=O)c3cc(Cl)c(O)c(Cl)c3)Cc3c[nH]c4c(cccc34)-c3cc2cc(c3O)Oc2ccc(cc2)CC1C(=O)N[C@@H](C(=O)O)c1ccc(O)cc1 ; strain or isolate: Clinical isolate ; read by: ELISA / cell fusion ; value: <1.3 µM
C/C=C1/N=C(c2ccccc2)N(c2nc(C)cc(=O)[nH]2)C1=O ; read by: RT activity ; value: 50.58 µg/mL
CCc1c(C(=O)c2cc(C)cc(C)c2)n(CC2CC=CC2)c(=O)[nH]c1=O ; strain or isolate: IIIB-SJ-3366 P21 (RT-E6E/K V106I Y181C F227L) ; changes: RT-E6E/K V106I Y181C F227L ; value: >567 µM
O=CN(/C=C/c1ccc(Cl)cc1)CCNS(=O)(=O)c1cccc2cnccc12 ; strain or isolate: LAI ; value: >16.7 µM
CCCCCCCC/C=C/CCCCCCCCC(=O)Oc1c(OC)cc2ccnc3c2c1N(C)C=C3 ; value: 52.8 µM
CN(C)CCOc1c(Br)c(Br)c(Br)c2c1OC(C)(C)C2 ; value: 110 µM
CCCc1cc(=O)oc2c3c(c4c(c12)OC(C)(C)CC4)O[C@H](C)[C@@H](C)C3=O ; changes: RT-Y181C ; read by: cytopathic effect / XTT ; value: 2.1 µM
CC1=C([C@H](C)CC/C=C(/C)C(=O)O)CC[C@@]2(C)[C@@H]3CC[C@H]4C(C)(C)C(=O)CC[C@]4(C)[C@]34O[C@@H]4[C@@]12O ; read by: syncytia ; value: 32.66 µg/mL
O=C1Nc2ccc(Cl)cc2C(C#Cc2ccncc2)(C(F)(F)F)O1 ; changes: RT-K103N ; value: <0.1446 µM
C/C(=C\Cn1cc(I)c(=O)[nH]c1=O)CO ; value: >100 µg/mL
Cc1ccnc(SC(F)(F)c2nc3ccccc3o2)n1 ; strain or isolate: OC/100(RT-L100I ; changes: RT-L100I ; value: 0.38 µM
Nc1nc2c(ncn2[C@@H]2O[C@H](CO)[C@@H](O)[C@H]2C(F)(F)F)c(=O)[nH]1 ; value: >100 µM
CC(C)=CCOC1(C(F)(F)F)OC(=O)Nc2ccc(Cl)cc21 ; value: <0.00268 µM
O=c1ccn(CC=C(CO)CO)c(=O)[nH]1 ; value: >100 µg/mL
CC#CCOC1(C(F)(F)F)OC(=O)Nc2ccc(Cl)cc21 ; value: <0.00313 µM
O=S(=O)(NCCN/C=C/c1ccccc1)c1cccc2cnccc12 ; strain or isolate: LAI ; value: >16.7 µM
COc1cc2ccnc3c2c(c1OC(=O)c1ccc(F)cc1)N(C)C=C3 ; value: 10.9 µM
COc1cc(C)cc2c(-c3c(O)cc(O)c4c3C[C@H](C)N[C@H]4C)cc(-c3cc(-c4c(O)cc(O)c5c4C[C@H](C)N[C@H]5C)c4cc(C)cc(OC)c4c3O)c(O)c12 ; strain or isolate: IIIRF ; read by: cytopathic effect / XTT ; value: ~20 µM
CC1=N/C(=C/c2ccc(Cl)cc2Cl)C(=O)N1c1nc(C)cc(=O)[nH]1 ; read by: RT activity ; value: 56.24 µg/mL
c1ccc(CNCc2ccc(CN3CCCNCCNCCCNCC3)cc2)nc1 ; strain or isolate: HE ; value: 0.001–0.01 µg/mL
COC(=O)C(=O)N1CCC[C@H]1C(=O)N[C@@H](Cc1ccccc1)C(=O)Nc1ccc(OCC(=O)N[C@@H](CC(N)=O)C(=O)N[C@@H](Cc2ccccc2)[C@H](O)C(=O)N2CCC[C@H]2C(=O)NC(C)(C)C)cc1 ; value: >100 µg/mL
CCc1ccc(C(=O)Oc2c(OC)cc3ccnc4c3c2N(C)C=C4)cc1 ; value: 0.5 µM
ClC(Cn1ncc2c(NCc3ccccc3)nc(SC3CCCC3)nc21)c1ccccc1 ; value: >100 µM
Nc1ccn(CC=C(CO)CO)c(=O)n1 ; value: 65.2 µg/mL
Nc1nc2c(ncn2CCOCP(=O)(O)O)c(=O)[nH]1 ; read by: plaque count ; value: 0.01 µM
Clc1cccc(Nc2nc(SCCN3CCOCC3)nc3c2cnn3CC(Cl)c2ccccc2)c1 ; value: 16.54 µM
Cc1cc(Cl)nc(N2C(=O)/C(=C\c3ccco3)N=C2c2ccccc2)n1 ; read by: RT activity ; value: 53.03 µg/mL
CCOC(=O)CNc1nc(Nc2ccc(Cl)cc2)nc(Oc2cc(=O)oc3ccccc23)n1 ; strain or isolate: RES056 ; changes: RT-resistant RES056 (K103N + Y181C) ; read by: MTT ; value: >45.6 µg/mL
c1ccc(CO[C@@H]2[C@H](OCc3ccccc3)[C@@H]3OC[C@@H](O3)[C@H]2OCc2ccccc2)cc1 ; strain or isolate: IIIB ; read by: MTT ; value: 2.14 µg/mL
COc1cc2ccnc3c2c(c1OC(=O)c1cc(F)ccc1F)N(C)C=C3 ; value: 2.1 µM
COC(=O)c1cc(OC)c2c(OC)cc(N)cc2n1 ; read by: p24 ; value: 0.12 µg/mL
O=C1Nc2ccc(Cl)cc2C(OCc2cccnc2)(C(F)(F)F)O1 ; value: <0.07527 µM
O=C1C(=O)c2cc(-c3cc(O)c(O)c(O)c3)ccc2C(Oc2c(O)cc(-c3ccc4cc(O)c(O)c(O)c4c3)cc2O)=C1O ; value: 3.9 µM
Cc1cn([C@@H]2O[C@H](CO)[C@@H](O)[C@H]2C(F)(F)F)c(=O)[nH]c1=O ; value: >100 µM
Nc1ccn([C@@H]2O[C@H](CO)C=C2F)c(=O)n1 ; strain or isolate: xxBRU ; value: 8 µM
FC(F)(Sc1ncccn1)c1nc2ccccc2o1 ; strain or isolate: HEPT/236 ; changes: RT-P236L ; value: 8.64 µM
COC(=O)C(=O)N1CCC[C@H]1C(=O)N[C@@H](Cc1ccccc1)C(=O)N[C@@H](CC(N)=O)C(=O)N[C@@H](Cc1ccccc1)[C@H](O)C(=O)N1CCC[C@H]1C(=O)NC(C)(C)C ; value: >100 µg/mL
COC(=O)c1cc2cc(N)cc(OC)c2[nH]1 ; read by: p24 ; value: 0.84 µg/mL
NCCNS(=O)(=O)c1ccc(Cl)c2ccncc12 ; strain or isolate: LAI ; value: >16.7 µM
CCC(=O)Nc1cc(NC(=O)CSc2nc(CCc3ccccc3)nc3sc4c(c23)CCCC4)ccc1C ; value: 64.5 µM
Nc1ccn([C@@H]2O[C@H](CO)C=C2F)c(=O)n1 ; strain or isolate: xxBRU ; read by: cytopathic effect / MTT ; value: <8 µM
Cc1cc(=O)[nH]c(N2C(=O)/C(=C\c3ccc(Cl)cc3Cl)N=C2c2ccccc2)n1 ; read by: RT activity ; value: 48.69 µg/mL
CCCCNc1cc(OC)c2cc(C(=O)OC)[nH]c2c1 ; read by: p24 ; value: 3.46 µg/mL
CC1=N/C(=C/c2ccccc2O)C(=O)N1c1nc(C)cc(Cl)n1 ; read by: RT activity ; value: 65.67 µg/mL
O=C(CCCN1C(=O)S/C(=C/c2cccs2)C1=O)Nc1nc2ccccc2s1 ; value: >100 µM
Cc1cc(=O)[nH]c(N2C(=O)/C(=C\c3ccc(N(C)C)cc3)N=C2c2ccccc2)n1 ; read by: RT activity ; value: 49.45 µg/mL
CCN(CC)C(=O)Oc1c(OC)cc2ccnc3c2c1N(C)C=C3 ; value: 45.9 µM
CC1(C)Cc2cccc(OCCCN3CCCCC3)c2O1 ; value: 118 µM
COc1cc(/C=C2/N=C(c3ccccc3)N(c3nc(C)cc(=O)[nH]3)C2=O)cc(OC)c1OC ; read by: RT activity ; value: 57 µg/mL
Cc1ncnc(C)c1C(=O)N1C[C@H]2CN(CCC(c3ccccc3)C3CN(CC(F)(F)F)C3)C[C@H]2C1 ; read by: cell fusion ; value: 5 µM
CCCCCc1ccc(C(=O)Oc2c(OC)cc3ccnc4c3c2N(C)C=C4)cc1 ; value: 18.8 µM
Cc1ncnc(C)c1C(=O)N1C[C@H]2CN(CCC(c3cccc(F)c3)C3CN(S(=O)(=O)C4CC4)C3)C[C@H]2C1 ; read by: cell fusion ; value: 0.03 µM
CCCCc1ccc(C(=O)Oc2c(OC)cc3ccnc4c3c2N(C)C=C4)cc1 ; value: 3.8 µM
COC(=O)N1CCC(C(CCN2C[C@@H]3CN(C(=O)c4c(C)ncnc4C)C[C@@H]3C2)c2ccccc2)CC1 ; read by: cell fusion ; value: 0.744 µM
CN1N=C(N)c2cn([C@@H]3O[C@H](COP(=O)(O)O)[C@@H](O)[C@H]3O)c3ncnc1c23 ; value: 0.01 µM
COC(=O)c1cc2c(OC)cc(N)cc2s1 ; read by: p24 ; value: 3.26 µg/mL
Cc1ncnc(C)c1C(=O)N1C[C@H]2CN(CCC(c3ccccc3)C3CN(S(=O)(=O)C(C)C)C3)C[C@H]2C1 ; read by: cell fusion ; value: 0.093 µM
CC(C)(CNC(=O)C(C)(C)C)NC(=O)[C@@H]1CCCN1C(=O)[C@@H](O)[C@H](Cc1ccccc1)NC(=O)[C@H](CC(N)=O)NC(=O)OCc1ccccc1 ; value: >100 µg/mL
O=C1Nc2ccc(Cl)cc2C(OCC2CC2)(C(F)(F)F)O1 ; changes: RT-K103N ; value: <0.989 µM
CN(C(=O)[C@H](Cc1ccccc1)NC(=O)Cc1c[nH]c2ccc(Cl)cc12)c1ccccc1 ; strain or isolate: NL4-3 ; changes: T107N ; read by: cytopathic effect ; value: 4.5 µM
Cc1cc(=O)[nH]c(N2C(=O)/C(=C\c3ccccc3)N=C2c2ccccc2)n1 ; read by: RT activity ; value: 47.75 µg/mL
Cc1ncnc(C)c1C(=O)N1C[C@H]2CN(CCC(c3ccccc3)C3CCN(C(=O)C(C)C)CC3)C[C@H]2C1 ; read by: cell fusion ; value: 5 µM
Cc1cn(CC=C(CO)CO)c(=O)[nH]c1=O ; value: >100 µg/mL
CC1=C/C(=C\[C@H](C)[C@]23OC(=O)C[C@]2(C)[C@H]2C[C@]4(O)C[C@@H]5C(=O)OC(C)(C)[C@]5(C)CC[C@@H]4[C@H]2O3)OC1=O ; read by: cytopathic effect ; value: 27.54 µg/mL
Nc1ccn([C@H]2CC[C@@H](CO)O2)c(=O)n1 ; strain or isolate: NL4-3 ; changes: D36G Q41R N43K A96D N126K H132Y V182I P203S L204I S241F H258Q A312T ; read by: β-galactosidase ; value: 0.536 µM
Cc1ccc(OCCn2ccc(=O)[nH]c2=O)c(Cc2ccccc2)c1 ; changes: Y181C ; value: 0.24 µM
NC(N)=NCCNS(=O)(=O)c1cccc2cnccc12 ; strain or isolate: LAI ; value: >16.7 µM
Cc1ncnc(C)c1C(=O)N1C[C@H]2CN(CCC(c3ccccc3)C3CCN(CC(F)(F)F)CC3)C[C@H]2C1 ; read by: cell fusion ; value: 0.034 µM
O=C1Nc2ccc(F)c(F)c2C(C#Cc2cccs2)(C(F)(F)F)O1 ; value: <0.00223 µM
O=C(CSc1nc(CCc2ccccc2)nc2sc3c(c12)CCCC3)NCc1cccs1 ; value: 92.9 µM
Nc1ncnc2c1ncn2NC(=O)COCP(=O)(O)O ; value: >10 µM

The last 6 rows once more:

smiles,strain or isolate,changes,read by,value
Cc1ccc(OCCn2ccc(=O)[nH]c2=O)c(Cc2ccccc2)c1,-,Y181C,-,0.24 µM
NC(N)=NCCNS(=O)(=O)c1cccc2cnccc12,LAI,-,-,>16.7 µM
Cc1ncnc(C)c1C(=O)N1C[C@H]2CN(CCC(c3ccccc3)C3CCN(CC(F)(F)F)CC3)C[C@H]2C1,-,-,cell fusion,0.034 µM
O=C1Nc2ccc(F)c(F)c2C(C#Cc2cccs2)(C(F)(F)F)O1,-,-,-,<0.00223 µM
O=C(CSc1nc(CCc2ccccc2)nc2sc3c(c12)CCCC3)NCc1cccs1,-,-,-,92.9 µM
Nc1ncnc2c1ncn2NC(=O)COCP(=O)(O)O,-,-,-,>10 µM